Pooled drug test results. Numbers come from NIAID ChemDB, via PubChem.

All rows: toxicity to cultured cells; cell line: C8166; endpoint: CC50

CCn: concentration that lowers growth or viability of the cells by n%. Neighbouring rows are from separate reports.

smiles	read by	result
CN(Cc1nc2ccccc2s1)Cc1ncccc1CCC#N	MTT	>10 µM
CCCCCCCCC(=O)O[C@@]12[C@H](OC(=O)/C=C/c3ccc(OC)cc3)[C@@H](C)[C@@]3(O)[C@@H](C=C(CO)C[C@]4(O)C(=O)C(C)=C[C@@H]34)[C@@H]1C2(C)C	MTT	52.7 µM
Cc1cc(S(N)(=O)=O)ccc1NC(=O)COc1ccc(F)cc1Oc1c(C)cc2ccccc2c1Cl	MTT / absorbance	55.6 µM
CN1CCN(c2ccnc3nc(CN(CCCCN)Cc4c(N)cccc4Cl)[nH]c23)CC1	MTT	>10 µM
COc1ccc(C(=O)N2c3ccccc3NC(=O)CC2C)cc1	MTT / absorbance	>400 µM
COC(=O)CC(O)(CC(=O)O)C(=O)NCCCC[C@H](NC(=O)OCc1ccccc1)C(=O)OCc1ccccc1	XTT	250 µM
CC1CC(=O)Nc2ccccc2N1C(=O)c1cccc(F)c1	MTT / absorbance	>400 µM
Cc1cc(S(N)(=O)=O)ccc1NC(=O)COc1ccc(Cl)cc1Oc1ccc2ccccc2c1Cl	MTT / absorbance	40.72 µM
CCCC(=O)O[C@@]12[C@H](OC(=O)/C=C/c3ccccc3)[C@@H](C)[C@@]3(O)[C@@H](C=C(COC(=O)/C=C/c4ccccc4)C[C@]4(O)C(=O)C(C)=C[C@@H]34)[C@@H]1C2(C)C	MTT	>200 µM
O=C(O)/C=C(/CC(=O)O)C(=O)NCCCC[C@H](NC(=O)OCc1ccccc1)C(=O)OCc1ccccc1	XTT	100 µM
CCc1cccnc1CN(CCCCN)Cc1nc2nccc(N3CCN(C)CC3)c2[nH]1	MTT	>10 µM
Cc1cc(S(N)(=O)=O)ccc1NC(=O)COc1ccc(F)cc1Oc1ccc2ccccc2c1	MTT / absorbance	68.55 µM
NCCCC[C@H](NC(=O)OCc1ccccc1)C(=O)NCCCCCC(=O)N[C@@H](CCCCN)C(=O)OCc1ccccc1	XTT	200 µM
Cc1cc(S(N)(=O)=O)ccc1NC(=O)COc1ccc(Cl)cc1Oc1ccc2ccccc2c1	MTT / absorbance	119 µM
CN(Cc1ccccn1)Cc1ncccc1CCC#N	MTT	>10 µM
CC/C=C\C/C=C\C/C=C\C/C=C\C/C=C\CCCC(=O)O[C@@H]1[C@@H](C)[C@@]2(O)[C@@H](C=C(CO)C[C@]3(O)C(=O)C(C)=C[C@@H]23)[C@@H]2C(C)(C)[C@]12OC(=O)CCC/C=C\C/C=C\C/C=C\C/C=C\C/C=C\CC	MTT	>200 µM
CN1CCN(c2ccnc3nc(CN(CCCCN)Cc4ncccc4C#N)[nH]c23)CC1	MTT	>10 µM
Cc1ccc(C(=O)N2c3ccccc3NC(=O)CC2C)cc1	MTT / absorbance	>400 µM
CN(Cc1ccccn1)Cc1nc2ccccc2[nH]1	MTT	>10 µM
O=C(O)CCC(=O)NCCCC[C@H](NC(=O)OCc1ccccc1)C(=O)NCCCCCC(=O)N[C@@H](CCCCNC(=O)CCC(=O)O)C(=O)OCc1ccccc1	XTT	400 µM
CN(Cc1nc2ccccc2[nH]1)Cc1ncccc1CCC#N	MTT	>10 µM
NC(=O)[C@H](CCCCNC(=O)c1c(O)cccc1C(=O)O)NC(=O)[C@H](CCCCNC(=O)c1cccc(O)c1C(=O)O)NC(=O)[C@H](CCCCNC(=O)c1cccc(O)c1C(=O)O)NC(=O)c1ccccc1	XTT	250 µM
C=C1C(=O)O[C@H]2[C@@H]1[C@H](OC(=O)C(C)C)[C@H]1[C@@](C)([C@@H](OC(C)=O)CC[C@]1(C)O)[C@H]2OC(C)=O	absorbance	9.51 µM
CC1=C[C@H]2[C@@]3(O)[C@H](C)[C@@H](OC(=O)CCCCC4SCC5NC(=O)NC54)[C@]4(OC(=O)CCCCC5SCC6NC(=O)NC65)[C@H]([C@@H]3C=C(CO)C[C@]2(O)C1=O)C4(C)C	MTT	>200 µM
CC1CC(=O)Nc2ccccc2N1C(=O)c1ccccc1Cl	MTT / absorbance	>400 µM
COC(=O)CC(O)(CC(=O)O)C(=O)NCCCC[C@H](NC(=O)OCc1ccccc1)C(=O)N[C@@H](CCCCNC(=O)C(O)(CC(=O)O)CC(=O)OC)C(=O)OCc1ccccc1	XTT	>250 µM
CCCCCCCCCC(=O)O[C@@]12[C@H](O)[C@@H](C)[C@@]3(O)[C@@H](C=C(CO)C[C@]4(O)C(=O)C(C)=C[C@@H]34)[C@@H]1C2(C)C	MTT	118 µM
CN(Cc1nc2ccccc2[nH]1)Cc1ncccc1CCC(N)=O	MTT	>10 µM
CC/C=C\C/C=C\C/C=C\C/C=C\C/C=C\CCCC(=O)O[C@@H]1[C@@H](C)[C@@]2(O)[C@@H](C=C(COC(C)=O)C[C@]3(O)C(=O)C(C)=C[C@@H]23)[C@@H]2C(C)(C)[C@]12OC(C)=O	MTT	54.22 µM
CC1CC(=O)Nc2ccccc2N1C(=O)c1cccc(Cl)c1	MTT / absorbance	>400 µM
CC(=O)O[C@@]12[C@H](OC(=O)CCCCCBr)[C@@H](C)[C@@]3(O)[C@@H](C=C(CO)C[C@]4(O)C(=O)C(C)=C[C@@H]34)[C@@H]1C2(C)C	MTT	>200 µM
C=C1C(=O)O[C@H]2[C@@H]1[C@H](OC(=O)C(C)C)[C@@H]1[C@@](C)([C@@H](OC(C)=O)CC[C@]1(C)O)[C@H]2OC(C)=O	absorbance	50.67 µM

3 of the rows above, restated:

CCc1cccnc1CN(CCCCN)Cc1nc2nccc(N3CCN(C)CC3)c2[nH]1 ; read by: MTT ; result: >10 µM
NCCCC[C@H](NC(=O)OCc1ccccc1)C(=O)NCCCCCC(=O)N[C@@H](CCCCN)C(=O)OCc1ccccc1 ; read by: XTT ; result: 200 µM
Cc1cc(S(N)(=O)=O)ccc1NC(=O)COc1ccc(Cl)cc1Oc1ccc2ccccc2c1 ; read by: MTT / absorbance ; result: 119 µM